# Measured values reported in publication PMC3989234, “Introduction of Aromatic Ring-Containing Substituents in Cyclic Nucleotides Is Associated with Inhibition of Toxin Uptake by the Hepatocyte Transporters OATP 1B1 and 1B3” (PLoS ONE, 2014).
# Chains of the proteins cited; added tags and fusions are not shown.
# UniProt Q9NPD5, whole entry: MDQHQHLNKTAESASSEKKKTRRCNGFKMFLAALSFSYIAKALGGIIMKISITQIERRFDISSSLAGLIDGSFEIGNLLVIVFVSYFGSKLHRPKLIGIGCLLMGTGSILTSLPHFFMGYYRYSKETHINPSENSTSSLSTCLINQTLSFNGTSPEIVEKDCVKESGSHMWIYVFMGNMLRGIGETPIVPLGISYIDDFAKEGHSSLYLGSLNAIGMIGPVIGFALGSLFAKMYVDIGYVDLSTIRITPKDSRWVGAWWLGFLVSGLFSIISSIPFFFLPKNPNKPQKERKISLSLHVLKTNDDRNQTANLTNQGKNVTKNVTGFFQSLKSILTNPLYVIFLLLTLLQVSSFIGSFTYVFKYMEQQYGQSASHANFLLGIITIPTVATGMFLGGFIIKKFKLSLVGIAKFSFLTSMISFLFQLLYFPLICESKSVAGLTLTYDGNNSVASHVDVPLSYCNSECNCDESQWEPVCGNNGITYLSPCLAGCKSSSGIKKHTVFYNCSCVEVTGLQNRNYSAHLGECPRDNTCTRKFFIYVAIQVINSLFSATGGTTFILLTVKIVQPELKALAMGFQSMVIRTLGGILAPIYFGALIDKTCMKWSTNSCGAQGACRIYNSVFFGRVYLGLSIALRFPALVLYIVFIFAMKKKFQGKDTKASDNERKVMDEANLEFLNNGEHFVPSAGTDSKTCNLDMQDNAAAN
# For part of its entries the source gives two or more results. This list holds those alone. An entry can have further records. Values given together do not match, cause unknown; dose, time, organism, isomer or construct need not be as stated for each record.
# Target: OATP1B3 (Homo sapiens, UniProt Q9NPD5)
# Test: Inhibition of nodularin (Nod)-induced apoptosis in OATP1B3-transfected HEK293T cells
# Conditions: read-out: OATP1B3 IC50 (inhibition of HEK293T-cell apoptosis induced by nodularin), Nod 0.6 µM, analog 15 min before Nod, 90 min coincubation, unit inferred
smiles,measurement,value
O=P1(O)OC[C@H]2O[C@@H](n3c(Sc4ccc(Cl)cc4)nc4c(Nc5ccccc5)ncnc43)[C@H](O)[C@@H]2O1,IC50,< 10 µM and 3 µM
